Anti-infective test results gathered from many reports (values: NIAID ChemDB through PubChem).

Shared fields: tests on isolated targets; species: HIV-1; target: Integrase; method: strand transfer; endpoint: IC50

Conditions beyond the fields shown may differ between rows. An empty or dashed field is not shown. Two numbers with a dash give a range or band. ICn: concentration for n% inhibition.

| SMILES | strain | value |
|---|---|---|
| CC[C@@]1(O)C(=O)OCc2c1cc1n(c2=O)Cc2cc3ccccc3nc2-1 |  | >100 µM |
| N=C(N)c1ccc2cc(C#Cc3ccccc3)ccc2c1 |  | 22 µM |
| N#C/C(=C\c1cc(O)c(O)c(I)c1)C(=O)NCCCc1ccccc1 |  | 10–100 µM |
| COC(=O)C(=O)C=C(O)c1ccc(Cc2ccc(F)cc2)o1 |  | 2.4 µg/mL |
| CCCCCCCCCCCCCCCCCc1cc(O[C@@H]2O[C@H](CO)[C@H](O)[C@H](O)[C@H]2O)cc(O)c1C(=O)Oc1cc(C)c(C(=O)O)c(O)c1 |  | 50 µM |
| COc1ccc(OC)c2c1c(/C(O)=C/C(=O)C(=O)O)cn2Cc1ccc(F)cc1 |  | 0.03 µM |
| COc1ccc(C(=O)CC(=O)C(=O)O)cc1Cc1ccccc1 | IIIB | 0.2 µM |
| Cc1cc(O)c(C=O)c2c1C(=O)Oc1c(CO)c(O)c3c(c1O2)C(O)OC3=O |  | 48.5–55 µM |
| COC(=O)C1C(=O)N(O)C(=O)c2ccccc21 |  | 4.9 µM |
| CN(C)C(=O)C(=O)N1CCOCC1Cn1c(=O)c(O)c2n(c1=O)CCN(Cc1ccc(F)cc1)C2=O |  | <10 µM |
| O=C1Sc2cc3ccccc3cc2C(=O)N2CSC[C@@H]12 |  | 88 µM |
| CCCCC[C@@H]1C=C[C@@H]2C[C@H](C)CC[C@H]2[C@]1(C)/C(O)=C1/C(=O)[C@H](CO)N(C)C1=O |  | 5 µM |
| COc1ccc2[nH]c3ccc4cc[n+](CCN5CCC(C6CCN(CC[n+]7ccc8ccc9[nH]c%10ccc(OC)cc%10c9c8c7)CC6)CC5)cc4c3c2c1 |  | 0.8 µM |
| O=C1Sc2ccc(Cl)cc2C(=O)N2CCSC12 |  | 90 µM |
| Nc1c2ccccc2nc2ccccc12 |  | >100 µM |
| O=C1c2c(O)c(=O)n(C3CN4CCC3CC4)c(=O)n2CCN1Cc1ccc(F)cc1 |  | <10 µM |
| O=C(O)C(=O)CC(=O)c1cccn1Cc1ccc(-c2ccccc2)cc1 |  | 7.5 µM |
| N#C/C(=C\c1ccc(O)c(O)c1)C(=O)NCN1CCN(C(=O)/C(C#N)=C/c2ccc(O)c(O)c2)CC1 |  | 5–10 µM |
| O=C(O)C(=O)CC(=O)c1ccc(Cc2ccccc2)s1 | IIIB | 0.6 µM |
| O=C1c2cccc(O)c2C(=O)c2c(O)cccc21 |  | >100 µM |
| CCCCCC[C@@H](C)C1=C(O)C(=O)[C@@H]2[C@H](O)[C@H](C)C[C@H](O)[C@H]2[C@]1(C)C(=O)CCO |  | >200 µM |
| CCOC(=O)C1Sc2ccccc2C(=O)n2cccc21 |  | >1000 µM |
| CCN(CCO)CCCC(C)Nc1ccnc2cc(Cl)ccc12 |  | >100 µM |
| C[C@@](O)(/C=C/[C@H]1CC=CC(=O)O1)[C@@H](C[C@@H](O)\C=C/C=C\C=C\CO)OP(=O)(O)O |  | 1.6–2.7 µM |
| N#C/C(=C\c1cc(O)c(O)c(O)c1)C(=O)NCCCCCNC(=O)/C(C#N)=C/c1cc(O)c(O)c(O)c1 |  | 0.17 µM |
| N=C(N)c1ccc2cc(C#Cc3ccc4c(c3)CCNC4)ccc2c1 |  | 45 µM |
| O=C1c2c(O)c(=O)n(C3CCCCN(Cc4ccccc4)C3=O)c(=O)n2CCN1Cc1ccc(F)cc1 |  | <10 µM |
| N=C(N)c1ccc2cc(C(=O)Nc3cccc(OC4CCCC4)c3)ccc2c1 |  | 24.5 µM |
| Nc1ccn(C2C[C@H](O)[C@@H](COP(=O)(O)O[C@H]3[C@H](n4cnc5c(N)ncnc54)CO[C@@H]3COP(=O)(O)O)O2)c(=O)n1 |  | 25 µM |
| CN(C)Cc1ccc2n1C(=O)c1ccccc1SC2c1ccc(F)cc1 |  | >1000 µM |
| COC(=O)C(=O)OC1(C(=O)O)C[C@@H](OC(=O)/C=C/c2ccc(O)c(O)c2)C(O)[C@H](OC(=O)/C=C/c2ccc(O)c(O)c2)C1 |  | 0.26 µg/mL |
| N#C/C(=C\c1ccc(O)c(O)c1)C(=O)NCCCCNC(=O)/C(C#N)=C/c1ccc(O)c(O)c1 |  | 5–10 µM |
| N=C(N)c1ccc2cc(C#Cc3ccc(C(O)CO)cc3)ccc2c1 |  | 7.4 µM |
| O=C(/C=C/c1ccc(O)c(O)c1)O[C@H]1[C@H](O)C[C@](O)(C(=O)O)C[C@H]1OC(=O)/C=C/c1ccc(O)c(O)c1 |  | 40.5–43.9 µM |
| Cc1c2ccncc2c(C)c2c1[nH]c1ccccc12 |  | 39.3 µM |
| CN1CCN(Cc2ccc3n2C(=O)c2ccccc2SC3c2ccccc2)CC1 |  | >1000 µM |
| N#C/C(=C\c1cc(O)c(O)c(O)c1)C(=O)NCCCCNC(=O)/C(C#N)=C/c1cc(O)c(O)c(O)c1 |  | 0.57 µM |
| N=C(N)c1ccc2cc(C#Cc3ccccn3)ccc2c1 |  | 300 µM |
| COC(=O)C(N)Cc1ccc(O)c(O)c1 |  | >25 µM |
| COc1cc(NS(C)(=O)=O)ccc1Nc1c2ccccc2nc2ccccc12 |  | >100 µM |

A second listing of 2 rows from above:

SMILES	strain	value
C[C@@](O)(/C=C/[C@H]1CC=CC(=O)O1)[C@@H](C[C@@H](O)\C=C/C=C\C=C\CO)OP(=O)(O)O		1.6–2.7 µM
COc1ccc2[nH]c3ccc4cc[n+](CCN5CCC(C6CCN(CC[n+]7ccc8ccc9[nH]c%10ccc(OC)cc%10c9c8c7)CC6)CC5)cc4c3c2c1		0.8 µM